The values below come from PubChem BioAssay AID720554 (ICCB-Longwood Screening Facility, Harvard Medical School, 2013).

As usually defined, the inhibition is how much of the control response was suppressed.

Structures are written as SMILES. This is a selection; strong and weak results do not stand in their true shares. Calls of active or inactive are those of the source. Rule as the data show it: active = inhibition mostly above about 83% (no sharp cut-off); inactive = mostly below about 52%.

The experiment concerns acyl-homoserine lactone synthase BmaI1 (Burkholderia mallei ATCC 23344). Briefly: BmaI1 acyl-homoserine lactone synthase inhibition – biochemical, fluorescence intensity, with counterscreen (AID 720554). Particulars: BmaI1 enzyme assay, hits give high values, concentration not given here. On the technique in general: A counterscreen serves to expose hits that act by an unwanted route or on another target.
On to `Cc1ccc(C(=O)NCC2(N(C)C)CCCCC2)o1`, for which the inhibition was inactive: 6%. The figure for `Cc1cnc(C(=O)NCC2(N3CCCCC3)CCCCC2)cn1` is inactive: 6.5%; for `O=C(NCC1(N2CCOCC2)CCCCC1)c1ccc2nc[nH]c2c1` it is inactive: 10%. As for `CN(C)c1ccc(C(=O)NCC2(N3CCCCC3)CCCCC2)cc1`, the inhibition was inactive: 11%. The figure for `O=C(NCC1(N2CCOCC2)CCCCC1)c1cc2ccccc2cc1O` is inactive: 29%.
